Data as given in PubChem BioAssay AID624099 (ICCB-Longwood, 2012)
The deposit covers about 21,000 reagents; below is an unselected part. Of all reagents, 497 (2.4%) were called active. 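Higher z means weaker E2 silencing; only reporter increases were scored, and knock-downs that hurt cell survival may mask genuine repressor factors.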

Aim: 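Human genes that papillomavirus E2 requires to repress the HPV18 LCR promoter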 (primary screen)
System: human C33A cervical carcinoma cells (HPV-negative) stably expressing BPV1 E2 and an HPV18 LCR luciferase reporter
Knock-down reagent: siRNA pool against human genes, 40 nM
Duration: 72 h
Detection: 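HPV18 LCR reporter light per well, converted to plate-wise z-scores that exclude control wells, and averaged over triplicate plates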
Reading the numbers: mean z-score and z-score: higher = stronger reporter signal, weaker E2 silencing
Rule for the call: 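Hit if mean z-score reaches 2 and two or more of three replicate z-scores also reach 2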

For COA4 (cytochrome c oxidase assembly factor 4 homolog) the deposit lists mean z-score -0.89; z-score, replicate A = -0.35; z-score, replicate B = -1.26; z-score, replicate C = -1.05; inactive.
For LINC00908 (long independently transcribed non-coding RNA 908), the entry reads mean z-score -0.59; z-score, replicate A = -0.41; z-score, replicate B = -0.84; z-score, replicate C = -0.53; inactive.
After knock-down of NAIF1 (nuclear apoptosis inducing factor 1), the screen gave mean z-score 1.42; z-score, replicate A = 1.75; z-score, replicate B = 1; z-score, replicate C = 1.52; inactive.
With knock-down of DDX18 (DEAD-box helicase 18) the results were mean z-score -0.96; z-score, replicate A = -0.51; z-score, replicate B = -1.31; z-score, replicate C = -1.06; inactive.
For DNM2 (dynamin 2), the entry reads mean z-score 1.06; z-score, replicate A = 1.06; z-score, replicate B = 1.14; z-score, replicate C = 0.98; inactive.
With knock-down of GPR150 (G protein-coupled receptor 150) the results were mean z-score -0.15; z-score, replicate A = 0.04; z-score, replicate B = -0.38; z-score, replicate C = -0.12; inactive.
Silencing of THOC1 (THO complex subunit 1) resulted in: mean z-score -0.95; z-score, replicate A = -0.84; z-score, replicate B = -0.99; z-score, replicate C = -1.01; inactive.
ZCWPW1 (zinc finger CW-type and PWWP domain containing 1) scored mean z-score -0.22; z-score, replicate A = -0.54; z-score, replicate B = 0.05; z-score, replicate C = -0.17; inactive.
Depletion of RBMX (RNA binding motif protein X-linked) gave: mean z-score 0.28; z-score, replicate A = 0.29; z-score, replicate B = 0.48; z-score, replicate C = 0.06; inactive.
ZNF157 (zinc finger protein 157) gave mean z-score -0.87; z-score, replicate A = -0.8; z-score, replicate B = -0.86; z-score, replicate C = -0.96; inactive.
Silencing of PIK3C2A came out at: mean z-score 0.13; z-score, replicate A = 0.11; z-score, replicate B = 0.15; z-score, replicate C = 0.13; inactive.
With knock-down of SLC6A13, the record shows mean z-score 0.96; z-score, replicate A = 0.89; z-score, replicate B = 0.87; z-score, replicate C = 1.12; inactive.
Knock-down of ANKRD24 (ankyrin repeat domain 24) came out at: mean z-score 0.65; z-score, replicate A = 0.62; z-score, replicate B = 0.34; z-score, replicate C = 0.99; inactive.
Depletion of SPINDOC (spindlin interactor and repressor of chromatin binding) came out at: mean z-score -0.12; z-score, replicate A = 0.14; z-score, replicate B = -0.38; inactive.
Against RETREG3 (reticulophagy regulator family member 3), the entry reads mean z-score -0.23; z-score, replicate A = -0.2; z-score, replicate B = -0.26; z-score, replicate C = -0.22; inactive.
For SLC35G2, the values are mean z-score 0.33; z-score, replicate A = 0.18; z-score, replicate B = 0.6; z-score, replicate C = 0.19; inactive.
Depletion of FAT2 (FAT atypical cadherin 2) gave: mean z-score 2.88; z-score, replicate A = 3.14; z-score, replicate B = 2.67; z-score, replicate C = 2.81; active.
LOC389764 (retired record) gave mean z-score 0.39; z-score, replicate A = 0.65; z-score, replicate B = 0.08; z-score, replicate C = 0.43; inactive.
LMF1 (lipase maturation factor 1) scored mean z-score -0.45; z-score, replicate A = -0.53; z-score, replicate B = -0.51; z-score, replicate C = -0.32; inactive.
PCDHGA10 (protocadherin gamma subfamily A, 10) scored mean z-score -0.72; z-score, replicate A = -1.12; z-score, replicate B = -0.64; z-score, replicate C = -0.39; inactive.
TESK2 (testis associated actin remodelling kinase 2) scored mean z-score -0.6; z-score, replicate A = -0.51; z-score, replicate B = -0.69; z-score, replicate C = -0.61; inactive.
Silencing of AMZ2P1 (AMZ2 pseudogene 1) came out at: mean z-score 0.54; z-score, replicate A = 0.5; z-score, replicate B = 0.98; z-score, replicate C = 0.14; inactive.
MRPL34 (mitochondrial ribosomal protein L34) showed mean z-score -0.81; z-score, replicate A = -0.88; z-score, replicate B = -0.75; z-score, replicate C = -0.8; inactive.
After knock-down of DPYSL2 (dihydropyrimidinase like 2), the record shows mean z-score 1.29; z-score, replicate A = 1.48; z-score, replicate B = 1.14; z-score, replicate C = 1.23; inactive.
Knock-down of PHF23 (PHD finger protein 23) gave: mean z-score -0.29; z-score, replicate A = -0.29; z-score, replicate B = -0.32; z-score, replicate C = -0.27; inactive.
With knock-down of LORICRIN (loricrin cornified envelope precursor protein), the record shows mean z-score -0.69; z-score, replicate A = -0.78; z-score, replicate B = -0.64; z-score, replicate C = -0.64; inactive.
With knock-down of TCF19 (transcription factor 19), the record shows mean z-score -0.87; z-score, replicate A = -1.03; z-score, replicate B = -0.6; z-score, replicate C = -0.99; inactive.
